Data as given in PubChem BioAssay AID1224833 (University of Georgia, 2016).
Here is an unselected part of about 12,000 deposited reagents. Over the whole deposit, about 5,600 (46%) got an active call. 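Active calls cover z-scores past 1 in both directions, so they include lowered as well as raised rotavirus replication.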 Entries without a mark were called inactive.

Screen: 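Host factors restraining rotavirus as candidate antiviral genes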 (primary screen)
Cell system: monkey MA104 kidney cells
Reagent: siRNA pool against human genes, 50 nM
Time to read-out: 48 h knock-down before infection; read 24 h after infection
Challenge: infection with rotavirus strain RV3 two days after transfection; infectious dose for this stage not given
Measurement: 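Rotavirus antigen per well by fluorescent immunoassay, normalised to non-targeting control wells on each plate and given as a standard z-score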
Scale: z-score vs non-targeting control: higher = more rotavirus replication than with non-targeting control
Call rule: In these data the active calls have z-score vs non-targeting control at about -1 or lower, or at about 1 or higher
Meaning of the calls: active = z-score beyond 1 either way; inactive = z-score within 1 of zero

target gene	z-score vs non-targeting control
PSME2	0.919
ARHGEF19	-0.842
ZGPAT	3.43 (active)
UGT1A8	-1.7 (active)
CD33	-0.321
CD81	1.18 (active)
PIGU	1.29 (active)
GARIN4	-1.78 (active)
MT4	-0.0666
RAB34	-0.486
RABGAP1	-1.16 (active)
CRTAC1	0.963
SYT10	0.368
SIGLEC5	-0.552
TACC1	0.3
OR2T33	-2.16 (active)
UBXN2A	-0.871
ESCO2	1.64 (active)
CLEC12A	0.704
KDSR	-1.07 (active)
VNN2	-3.15 (active)
HLA-DRB5	-1.45 (active)
DRG2	-0.948
LYG2	1.5 (active)
TNFRSF10C	-2.3 (active)
MAML3	-2.06 (active)
KRTAP3-3	-2.36 (active)
SLC22A6	1 (active)
LAMC2	0.0471
SBSPON	1.62 (active)
KRAS	-1.53 (active)
SAE1	-1.04 (active)
CTTN	1.01 (active)
GGH	0.572
TEX101	1.54 (active)
USP27X	-1.28 (active)
GLYATL1	-0.814
C9orf78	-0.185
C4BPB	0.814
RANBP10	-0.777
CCDC70	-2.18 (active)
TUT1	-0.79
WT1	-2.28 (active)
ORC2	-0.806
TREH	-1.48 (active)
PSMA2	2.26 (active)
FAM43B	1.9 (active)
NDUFS5	-0.864
CD3E	-1.64 (active)
RPL27A	0.653
NFATC4	-3.01 (active)
UBAP2	-0.5
SLC25A38	-0.604
NUP88	-1.34 (active)
KIAA1217	0.329
C4orf51	-0.863
EXOSC2	0.619
NAALADL2	0.614
DNASE2B	-0.841
SLC28A2	-2.5 (active)
HIRIP3	-0.853
DNMBP	-0.668
ZNF844	-0.467
SPRED2	-0.257
SHC4	-0.747
KLF12	-2.06 (active)
ZSWIM4	-1.17 (active)
PPID	-1.15 (active)
CASP9	0.624
SKIC8	-0.217
NDUFAF5	0.598
NR2F2	-2.53 (active)
TBC1D7	0.973
TNNC1	-0.294
ERAL1	1.16 (active)
MAGED4	1.36 (active)
TLCD4	2.15 (active)
XRCC5	-0.928
CDH5	0.118
TMF1	-0.538
ZBED4	1.93 (active)
DNAJA4	-0.768
LTB	-1.06 (active)
COMMD9	0.681
CPA4	-1.21 (active)
ARHGEF28	0.0595
DNLZ	0.889
SLC2A7	-0.657
SPEN	-0.567
FERD3L	-0.385
OR5M1	-0.216
PIWIL3	0.961
TIGD7	-1.6 (active)
TMEM174	0.593
ARHGAP31	-0.252
GJC2	-0.885
ASF1B	0.0522
GTSF1	-1.79 (active)
PPP4R4	-1.42 (active)
RASGEF1C	0.178
LSMEM1	-0.918
TRIP6	-0.926
ADM	-0.529
SERPINB12	1.87 (active)
SLC45A3	0.976
MS4A6A	-0.903
MEGF11	0.448
KIAA1755	-2.78 (active)
SFTPD	-0.908
ABCG1	-0.536

Laid out differently: 9 of the entries above
target gene | z-score vs non-targeting control
KLF12 | -2.06 (active)
ZSWIM4 | -1.17 (active)
PPID | -1.15 (active)
CASP9 | 0.624
SKIC8 | -0.217
NDUFAF5 | 0.598
NR2F2 | -2.53 (active)
TBC1D7 | 0.973
TNNC1 | -0.294
